Reference: PubChem BioAssay AID1259414 (Drosophila RNAi Screening Center, 2018)

Purpose: 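Genome-wide screen for host control of endosymbiont load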 (primary screen)
System: Drosophila JW18 cells infected with Wolbachia
Knock-down reagent: long dsRNA against Drosophila genes, 0.25 µg dsRNA per well of a 384-well plate
Time to read-out: 5 days
Conditions: cells persistently infected with Wolbachia before knock-down; no added drug
Detection: 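Automated imaging of bacterial rRNA staining divided by host cell count, reported as plate-normalised robust z-score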
Direction: Wolbachia per cell robust z: higher = more Wolbachia per host cell than the plate typical
Active means: 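Hit when robust z is 1.5 or more, or -1.5 or less, in at least two of three replicates; excludes dsRNAs with several or no targets, genes not expressed in JW18 and well A1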
The screen tested about 24,000 reagents; this is a random part of those that have a named target and a result. Of all reagents, about 1,210 (5%) are marked active. 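Inactive calls also include excluded dsRNAs with several or no targets, genes unexpressed in JW18, and well A1, regardless of score.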 No sequences are given here.

no.	gene	DRSC id	Wolbachia per cell robust z, rep 1	Wolbachia per cell robust z, rep 2	Wolbachia per cell robust z, rep 3	outcome
1	Ube4B	DRSC03277	-0.105	-0.1	-0.829	inactive
2	Nepl9	DRSC02255	-1.82	-0.422	-0.344	inactive
3	JhI-21	DRSC02161	-0.561	1.07	1.17	inactive
4	JhI-21	DRSC29181	-0.427	0.37	1.23	inactive
5	CG12182	DRSC08142	0.053	-1.55	-0.247	inactive
6	CG14132	DRSC10136	-1.29	-1.14	-0.0051	inactive
7	CG34134	DRSC38696	-0.819	0.0469	0.563	inactive
8	CR41506	DRSC40589	-0.298	-0.9	0.515	inactive
9	CG31735	DRSC01518	1.11	0.382	-0.163	inactive
10	CG31735	DRSC30072	-0.435	-0.435	-0.0114	inactive
11	Cul6	DRSC09830	-0.907	0.187	-4.72	inactive
12	CG13690	DRSC00359	-4.7	0.39	0.0185	inactive
13	Rrp46	DRSC15537	-1.06	-2.56	-0.319	inactive
14	CG34295	DRSC38656	-0.327	-0.655	-1.24	inactive
15	CG14642	DRSC12228	-0.0318	-1.28	0.72	inactive
16	CG13476	DRSC10019	-0.82	-1.37	-0.759	inactive
17	GstD4	DRSC16685	-2.49	-2.58	0.826	inactive
18	GstD4	DRSC27765	0.614	-0.588	-3.63	inactive
19	GstD4	DRSC38958	2.15	0.712	0.364	inactive
20	CG11975	DRSC14452	-0.127	0.546	-1.72	inactive
21	CG45049	DRSC16163	0.116	-1.52	-5.78	active
22	CG45049	DRSC23175	0.643	-0.274	1.22	inactive
23	JMJD4	DRSC03025	0.686	-0.0605	0.7	inactive
24	JMJD4	DRSC25368	-2.09	1.69	-0.687	inactive
25	Dlip1	DRSC18460	-0.457	-0.0573	0.226	inactive
26	Ucp4A	DRSC19996	1.15	1.33	1.81	inactive
27	Ucp4A	DRSC27013	-0.963	-1.25	-0.129	inactive
28	CG31344	DRSC16069	0.192	0.0901	-0.44	inactive
29	CG31344	DRSC29593	-1.04	-2.48	-0.0452	inactive
